Here are results for one compound from patent publication US20160361334A1, “APPLICATION OF BAICALIN IN PREPARATION OF DRUG FOR TREATING RICIN POISONING” (published 2016).

The assay addresses ricin (Ricinus communis, UniProt P02879). In words: Crystal structure of the complex of ricin with baicalin (mechanism and target validation). To be noted: pendant drop method; binding sites Arg189, Thr190, Arg193, Tyr194, Arg235 and Arg258.

`O=C(O)[C@H]1O[C@@H](Oc2cc3oc(-c4ccccc4)cc(=O)c3c(O)c2O)[C@H](O)[C@@H](O)[C@@H]1O`: the “Effect of baicalin on ricin (crystal structure of the complex)” value is given as “induce ricin to form a polymer”.
